Measurements reported in PubChem BioAssay AID1224833 (University of Georgia, 2016).
Aim: 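Host factors restraining rotavirus as candidate antiviral genes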 (primary screen). System: monkey MA104 kidney cells. Reagent: siRNA pool against human genes, 50 nM. Timing: 48 h knock-down before infection; read 24 h after infection. Treatment: infection with rotavirus strain RV3 two days after transfection; infectious dose for this stage not given. Read-out: 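z-score of rotavirus antigen signal per well, from a fluorescent immunoassay, relative to non-targeting control wells on the same plate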. Reading the numbers: z-score vs non-targeting control: higher = more rotavirus replication than with non-targeting control. Call rule: In these data the active calls have z-score vs non-targeting control at about -1 or lower, or at about 1 or higher. Meaning of the calls: active = z-score beyond 1 either way; inactive = z-score within 1 of zero.
Shown is a random part of about 12,000 reagents. Of all reagents, about 5,600 (46%) were called active. 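Active calls cover z-scores past 1 in both directions, so they include lowered as well as raised rotavirus replication.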

gene symbol	z-score vs non-targeting control	Outcome
ODAPH	1.73	active
HOXD3	-1.2	active
CPSF1	2.13	active
BHLHE41	-0.28	inactive
C20orf144	-1.44	active
GTF2F1	-1.39	active
SMPDL3A	-1.39	active
TBC1D22A	-2.22	active
H3C12	1.4	active
VIPR1	-1.16	active
ZNF146	-1.87	active
RPL15	-1.23	active
PAGE4	-0.436	inactive
KRTAP9-3	0.75	inactive
TMIGD2	-1.48	active
TMEM139	0.935	inactive
SIGLEC1	0.552	inactive
ACOX1	0.58	inactive
PAPPA2	-0.791	inactive
SLC30A1	-0.721	inactive
MMAA	-0.923	inactive
TRMT10C	-0.222	inactive
CLEC3B	-1.1	active
CIMAP1D	-0.258	inactive
MRFAP1L1	0.228	inactive
CD96	-0.177	inactive
TES	-3.06	active
ARHGAP31	-0.252	inactive
RABGEF1	0.098	inactive
PIWIL4	-0.113	inactive
IRF1	0.958	inactive
AMBRA1	-0.623	inactive
AASDHPPT	-1.21	active
ATOSB	-0.468	inactive
HILPDA	-1.29	active
CTAG2	-1.14	active
PCYT1A	-1.04	active
PMM2	0.485	inactive
TRUB1	-1.09	active
IMP4	0.503	inactive
SLC15A1	0.623	inactive
RGPD5	-0.872	inactive
GMFG	-0.0199	inactive
RPP38-DT	-1.15	active
IFNLR1	0.95	inactive
DSG1	-0.209	inactive
KRTAP9-2	-0.754	inactive
TSPYL1	-0.997	inactive
ONECUT1	1.84	active
APPL2	-1.09	active
UGDH	-0.797	inactive
SSRP1	-1.29	active
C3AR1	-0.697	inactive
WFS1	-1.35	active
CYB5R2	0.733	inactive
MEOX1	-0.616	inactive
PIEZO2	-1.7	active
AMY1C	-0.0312	inactive
MRAS	1.41	active
LSMEM2	1.59	active
MRPL57	-0.966	inactive
NBPF14	-1.1	active
TMOD2	-0.256	inactive
VPS45	0.0232	inactive
NHERF4	-0.674	inactive
ALDOC	1.76	active
MTAP	-1.54	active
FADS2	-0.72	inactive
RPS12	-0.779	inactive
OR4F3	-0.306	inactive
XRCC3	-1.06	active
FAM76B	-0.982	inactive
ILRUN	-2.2	active
KLHL35	1.67	active
GJB3	1.04	active
NFIB	0.555	inactive
NOXA1	-1.52	active
SRD5A2	-2.86	active
TBC1D4	0.76	inactive
HLA-DQA1	-1.09	active
CDH6	0.704	inactive
PSMA6	1.26	active
PRDX3	-1.02	active
NLRP5	0.979	inactive
POMT1	-0.651	inactive
PEMT	-1.42	active
ARHGEF2	1.28	active
URB2	0.291	inactive
NUCB1	-1.04	active
CEBPG	-0.712	inactive
GPRC6A	1.38	active
CCDC172	0.232	inactive
GNB1L	-0.21	inactive
HAGHL	-0.692	inactive
MYO7B	-0.482	inactive
CRYBG2	0.298	inactive
ZDHHC17	-0.304	inactive
TPP2	-0.704	inactive
CAVIN3	0.408	inactive
SNCB	-0.725	inactive
MMAB	0.677	inactive
JMJD1C	-0.717	inactive
S100A10	-2.85	active
LRP2BP	0.794	inactive
PGR	-2.08	active
MR1	0.471	inactive
TAAR8	0.977	inactive
GNRH2	1.48	active
NPAS2	0.94	inactive
TMEM201	-0.551	inactive
CCDC25	-0.743	inactive
NDOR1	0.576	inactive
ZXDA	-0.359	inactive
ACTN4	-0.0703	inactive
METTL22	0.473	inactive
WDR18	-0.44	inactive
ERLEC1	-1.83	active
TSEN15	0.301	inactive
CDCA4	-0.21	inactive
STAT1	2.15	active
IMPG2	-0.248	inactive
KLF12	-2.06	active
DSN1	-0.348	inactive
FOXN4	-3.2	active
MRGPRE	-1.03	active
ATXN10	-0.741	inactive
SMARCE1	-0.666	inactive
COL2A1	1.07	active
MYO5A	-1.13	active
NT5DC1	1.23	active
ALB	-2.34	active
LCE1C	-0.288	inactive
FYTTD1	-0.563	inactive
TMEM187	-0.358	inactive
OR4C15	-0.647	inactive
ERBIN	0.814	inactive
GEMIN6	0.159	inactive
CTSS	2.09	active
WFDC11	-1.81	active
SLC22A13	-1.06	active

A few values from the list:
Under “Outcome”, ARHGEF2 shows active
WDR18, z-score vs non-targeting control: -0.44
CRYBG2, Outcome: inactive
For “z-score vs non-targeting control”, NHERF4 has -0.674
ACTN4, z-score vs non-targeting control: -0.0703
CAVIN3, Outcome = inactive
